A mixed list of measured activities; the numbers were collected in NIAID ChemDB.

Shared fields: tests in culture; species: Mycobacterium tuberculosis

An empty or dashed field is not shown.

NC(=S)c1cnc(C(=O)c2ccc(Cl)cc2)cn1 ; strain or isolate: H37Rv ; method: resazurin ; measure: inhibition ; dose: 6.25 µg/mL ; value: 90%
COc1ccc(Cc2cnc(N)nc2N)cc1OC ; strain or isolate: H37Rv ; measure: MIC ; value: >123 µM
CCC(CO)NCC[C@H]1O[C@H](O[C@H]2O[C@H](CCNC(CC)CO)[C@@H](O)[C@H](O)[C@H]2O)[C@H](O)[C@@H](O)[C@@H]1O ; strain or isolate: H37Ra ; measure: MIC ; value: >128 µg/mL
O=C1C(c2ccc(Oc3ccccc3)cc2)=[N+]([O-])c2cc3c(cc21)OCO3 ; strain or isolate: H37Rv ; method: MTT ; measure: EC50 ; value: 13.4 µM
Fc1ccc(N2CN(c3ccc(F)cc3Br)CN(c3ccc(F)cc3Br)C2)c(Br)c1 ; strain or isolate: H37Rv ; method: colony count / visual reading ; measure: MIC ; value: 50 µg/mL
c1ccc(-c2ccc(CNc3ccccc3-n3ccnc3)cc2)cc1 ; strain or isolate: 103471 ; measure: MIC ; value: 8 µg/mL
CC1(C)CCc2c(c3ccccc3c3[nH]c(-c4ccc(F)cc4)nc23)O1 ; strain or isolate: ATCC 35822 ; method: resazurin ; measure: MIC ; value: 17.2 µM
CCOC(=O)c1c(NC(=O)c2c(F)c(F)c(F)c(F)c2F)sc(C(N)=O)c1C ; measure: MIC ; value: 0.5 µM
CC(C)C[C@@H]1NC(=O)[C@H](Cc2c[nH]c3ccccc23)NC(=O)[C@@H](CCCN)NC(=O)[C@H](CC(=O)NCC2CCCCC2)NC(=O)[C@H](C(C)C)NC(=O)[C@@H](CC(C)C)NC1=O ; strain or isolate: H37Rv ; method: resazurin ; measure: MIC ; value: 10 µM
C[C@H]1NCc2cc(-c3ccc4c(=O)c(C(=O)O)cn(C5CC5)c4c3OC(F)F)ccc21 ; strain or isolate: 10 strains ; measure: MIC90 ; value: 0.0625 µg/mL
COc1ccc(CNC(=O)c2nnc(-c3ccccn3)[nH]c2=O)cc1 ; strain or isolate: H37Rv ; measure: MIC ; value: >32 µg/mL
O=C1C(c2ccc(Oc3ccccc3)cc2)=[N+]([O-])c2ccccc21 ; strain or isolate: H37Rv ; method: MTT ; measure: MIC ; value: 6.25 µM
Brc1ccc(N2CN(c3ccc(Br)cc3)CN(c3ccc(Br)cc3)C2)cc1 ; strain or isolate: H37Rv ; method: colony count / visual reading ; measure: MIC ; value: 125 µg/mL
COc1cc(C=O)cc2c1[nH]c1ccccc12 ; strain or isolate: H37Rv ; measure: MIC ; value: >128 µM
FC(F)(F)c1ccc(N2CN(c3ccc(C(F)(F)F)cc3)CN(c3ccc(C(F)(F)F)cc3)C2)cc1 ; strain or isolate: H37Rv ; method: colony count / visual reading ; measure: MIC ; value: 25 µg/mL
Cc1ccc(C(=O)CC(N/N=C(\N)c2ccccn2)c2cccnc2)cc1 ; strain or isolate: H37Rv ; measure: MIC ; value: 1 µg/mL
Fc1ccccc1N1CN(c2ccccc2F)CN(c2ccccc2F)C1 ; strain or isolate: H37Rv ; method: colony count / visual reading ; measure: MIC ; value: 100 µg/mL
CCn1cc(C(=O)O)c(=O)c2cc(F)c(N3CCN(/C=N/NC(=O)c4cccc(F)c4)CC3)cc21 ; strain or isolate: A8 241 ; measure: MIC ; value: 31.67 µg/mL
COc1ccc2c(c1)C(=O)C(c1ccc(Oc3ccccc3)cc1)=[N+]2[O-] ; strain or isolate: H37Rv ; method: MTT ; measure: EC50 ; value: 2.7 µM
CCCCCCCCOc1ccc(Cc2cnc(N)nc2N)cc1OC ; strain or isolate: H37Rv ; measure: MIC ; value: 22.3 µM
CC(=O)N1CCc2c(sc(NC(=O)c3cccs3)c2C(N)=O)C1 ; strain or isolate: H37Rv (ATCC 27294) ; method: agar ; measure: MIC100 ; value: 9.15 µM
N/C(=N\NC(CC(=O)c1ccc(Cl)cc1)c1ccccn1)c1ccccn1 ; strain or isolate: H37Rv ; measure: MIC ; value: 4 µg/mL
COc1ccc(-n2c(C)nc3ccc(Cl)cc3c2=S)cc1 ; strain or isolate: My 331/88 ; measure: MIC ; value: >62.5 µg/mL
CC1=CC(=O)C(C(C)C)=CC1=O ; strain or isolate: H37Ra ATCC 25177 ; method: broth dilution ; measure: MIC ; value: 8 µg/mL
OCC1CCCC1CNCCCCCCNCC1CCCC1CO ; strain or isolate: H37Rv ; measure: MIC ; value: >64 µg/mL
CN1CCN(c2ccc(NCc3ccc(Cl)cc3)cc2)CC1 ; strain or isolate: 103471 ; measure: MIC ; value: >16 µg/mL
NC(=S)c1cnc(C(=O)c2ccccc2)cn1 ; strain or isolate: H37Rv ; method: resazurin ; measure: inhibition ; dose: 6.25 µg/mL ; value: 39%
C(=C\c1ccccc1)/CCNc1ccc(N2CCSCC2)cc1 ; strain or isolate: 103471 ; measure: MIC ; value: 8 µg/mL
CCCCCCCCCCOc1ccc(Cc2cnc(N)nc2N)cc1OC ; strain or isolate: H37Rv ; measure: MIC ; value: 15.5 µM
N/C(=N\NC(CC(=O)c1ccc(Cl)c(Cl)c1)c1ccccn1)c1ccccn1 ; strain or isolate: H37Rv ; measure: MIC ; value: 2 µg/mL
CCC(CO)NC[C@H]1O[C@H](CO)[C@@H](O)[C@@H]1O ; strain or isolate: H37Ra ; measure: MIC ; value: >128 µg/mL
O=C(NCc1ccc(Br)cc1)c1nnc(-c2ccccn2)[nH]c1=O ; strain or isolate: H37Rv ; measure: MIC ; value: >32 µg/mL
NC(=O)c1cnc(C(=O)c2ccc(O)cc2)cn1 ; strain or isolate: H37Rv ; method: resazurin ; measure: inhibition ; dose: 6.25 µg/mL ; value: 0%
O=Cc1cc2c3ccc(O)cc3[nH]c2c2ccoc12 ; strain or isolate: H37Rv ; measure: MIC ; value: 51 µM
Cc1n[nH]c(=S)n1/N=C/c1ccc(F)c(Br)c1 ; strain or isolate: H37Rv ; method: agar diffusion / visual reading ; measure: zone ; dose: 10000 µg/mL ; value: 11.25 mm
COC(=O)c1cnc(C(=O)c2ccccc2)cn1 ; strain or isolate: H37Rv ; method: resazurin ; measure: EC50 ; value: >6.25 µg/mL
CCC(CO)NC[C@H]1N[C@@H](CO)[C@@H](O)[C@@H]1O ; strain or isolate: H37Ra ; measure: MIC ; value: >128 µg/mL
CCCCCCCn1c2ccccc2c2c(OC)c(CO)c(C)cc21 ; strain or isolate: H37Rv ; measure: MIC ; value: 11 µM
CC1(C)CCc2c(c3ccccc3c3nc(-c4ccccc4C#N)oc23)O1 ; strain or isolate: ATCC 35822 ; method: resazurin ; measure: MIC ; value: 17.6 µg/mL
Cc1ccc(N2CN(c3ccc(C)cc3)CN(c3ccc(C)cc3)C2)cc1 ; strain or isolate: H37Rv ; method: colony count / visual reading ; measure: MIC ; value: 250 µg/mL
N/C(=N\NC(CC(=O)c1ccc(Cl)cc1)c1cccnc1)c1ccccn1 ; strain or isolate: H37Rv ; measure: MIC ; value: 1 µg/mL
COc1ccc2c(c1)C(=O)C(c1ccc(Cl)c(C(F)(F)F)c1)=[N+]2[O-] ; strain or isolate: H37Rv ; method: MTT ; measure: EC50 ; value: 6.6 µM
Cc1cccc(C(=O)CC(N/N=C(\N)c2ccccn2)c2ccncc2)c1 ; strain or isolate: H37Rv ; measure: MIC ; value: 8 µg/mL
CC[C@@H](CO)NCCN[C@@H](CC)CO ; measure: MIC ; value: 7.2 µM
NNC(=O)c1ccncc1 ; strain or isolate: MDR-699 ; method: resazurin ; measure: MIC ; value: 64 µg/mL
CCc1ccc2c(c1)[nH]c1ccc(N)cc12 ; strain or isolate: H37Rv ; measure: MIC ; value: 55 µM
COc1ccc2c(c1)[n+]([O-])c(S(=O)(=O)c1ccc(C)cc1)c(N)[n+]2[O-] ; strain or isolate: PAS-R ; measure: MIC ; value: >12.5 µg/mL
O=C(NCc1ccc(Cl)cc1Cl)c1nnc(-c2ccccn2)[nH]c1=O ; strain or isolate: H37Rv ; measure: MIC ; value: >32 µg/mL
COc1cc(Cc2cnc(N)nc2N)ccc1OCCOc1ccccc1 ; strain or isolate: H37Rv ; measure: MIC ; value: 65.5 µM
CC1=CC(=O)c2c(O)cccc2C1=O ; strain or isolate: H37Ra ATCC 25177 ; method: broth dilution ; measure: MIC ; value: 8 µg/mL
Cc1n[nH]c(=S)n1/N=C/c1cccc(Cl)c1F ; strain or isolate: H37Rv ; method: agar diffusion / visual reading ; measure: zone ; dose: 10000 µg/mL ; value: 13.5 mm
COC(=O)c1c(-c2ccc(Cl)cc2)csc1NC(=O)c1c(F)c(F)c(F)c(F)c1F ; measure: MIC ; value: 3.5 µM
Clc1ccc(CNc2ccc(N3CCOCC3)cc2)cc1 ; strain or isolate: 103471 ; measure: MIC ; value: >16 µg/mL
C1CCC(CNCCNCC2CCCC2)C1 ; strain or isolate: H37Rv ; measure: MIC ; value: 8 µg/mL
CN[C@@H]1[C@H](O[C@H]2[C@H](O[C@H]3[C@H](O)[C@@H](O)[C@H](N=C(N)N)[C@@H](O)[C@@H]3N=C(N)N)O[C@@H](C)[C@]2(O)C=O)O[C@@H](CO)[C@H](O)[C@H]1O ; strain or isolate: H37Rv ; method: agar diffusion / visual reading ; measure: zone ; dose: 10000 µg/mL ; value: 27 mm
NNC(=O)c1ccncc1 ; strain or isolate: ATCC35801 ; measure: MIC ; value: 0.062 µg/mL
NC[C@H]1O[C@H](O[C@H]2[C@H](O)[C@@H](O[C@H]3O[C@H](CO)[C@@H](O)[C@H](N)[C@H]3O)[C@H](N)C[C@@H]2N)[C@H](O)[C@@H](O)[C@@H]1O ; measure: MIC ; value: 6 µg/mL
Fc1ccc(N2CN(c3ccc(F)c(Cl)c3)CN(c3ccc(F)c(Cl)c3)C2)cc1Cl ; strain or isolate: H37Rv ; method: colony count / visual reading ; measure: MIC ; value: 62.5 µg/mL
Cc1ccc(C(=O)CC(N/N=C(\N)c2ccccn2)c2ccncc2)cc1 ; strain or isolate: H37Rv ; measure: MIC ; value: 8 µg/mL
NCCCN1c2ccccc2Sc2ccccc21 ; strain or isolate: STB-9102 ; method: resazurin ; measure: MIC ; value: 2 µg/mL
NC(=S)c1cnc(C(=O)c2ccc(O)cc2)cn1 ; strain or isolate: H37Rv ; method: resazurin ; measure: inhibition ; dose: 6.25 µg/mL ; value: 21%
CO[C@H]1/C=C/O[C@@]2(C)Oc3c(C)c(O)c4c(O)c(c(/C=N/N5CCN(C6CCCC6)CC5)c(O)c4c3C2=O)NC(=O)/C(C)=C\C=C\[C@H](C)[C@H](O)[C@@H](C)[C@@H](O)[C@@H](C)[C@H](O)[C@@H]1C ; strain or isolate: Atencio ; measure: MIC ; value: 0.12 µg/mL
CCC1CN(c2c(F)cc3c(=O)c(C(=O)O)cn(C4CC4)c3c2OC)CCN1 ; strain or isolate: Isolate TN6515 ; measure: MIC ; value: 0.07 µg/mL
O=C(O)c1cnc(C(=O)c2ccccc2O)cn1 ; strain or isolate: H37Rv ; method: resazurin ; measure: EC50 ; value: >6.25 µg/mL
CCCCCCCCCCCOc1ccc(Cc2cnc(N)nc2N)cc1OC ; strain or isolate: H37Rv ; measure: MIC ; value: 20 µM
COC(=O)c1cc(OC)c2[nH]c3ccccc3c2c1 ; strain or isolate: H37Rv ; measure: MIC ; value: 69 µM
Cc1n[nH]c(=S)n1/N=C/c1ccc(F)cc1F ; strain or isolate: H37Rv ; method: agar diffusion / visual reading ; measure: zone ; dose: 10000 µg/mL ; value: 13 mm
CCCOc1ccc(Cc2cnc(N)nc2N)cc1OC ; strain or isolate: H37Rv ; measure: MIC ; value: >111 µM
CCc1c(C)sc(NC(=O)c2c(F)c(F)c(F)c(F)c2F)c1C(=O)OC(C)C ; measure: MIC ; value: 1 µM
O=C1C(c2ccc(Cl)cc2)=[N+]([O-])c2ccccc21 ; strain or isolate: H37Rv ; method: MTT ; measure: MIC ; value: 25 µM
Cc1ccc(C(=O)CC(N/N=C(\N)c2ccccn2)c2ccccn2)cc1 ; strain or isolate: H37Rv ; measure: MIC ; value: 1 µg/mL
CC[C@@H](CO)NCC[C@H]1O[C@H](O[C@H]2O[C@H](CCN[C@@H](CC)CO)[C@@H](O)[C@H](O)[C@H]2O)[C@H](O)[C@@H](O)[C@@H]1O ; strain or isolate: H37Ra ; measure: MIC ; value: >128 µg/mL
O=C(NCc1ccccc1F)c1nnc(-c2ccccn2)[nH]c1=O ; strain or isolate: H37Rv ; measure: MIC ; value: 32 µg/mL
c1ccc2c(c1)[nH]c1ccccc12 ; strain or isolate: H37Rv ; measure: MIC ; value: >128 µM
CCCCCCCCCCCCOc1ccc(Cc2cnc(N)nc2N)cc1OC ; strain or isolate: H37Rv ; measure: MIC ; value: 19.3 µM
C[C@@H]1CN(CCn2c3ccccc3c3ccccc32)C[C@H](C)N1 ; strain or isolate: H37Rv ; measure: MIC ; value: 30 µM
FC(F)(F)c1ccccc1N1CN(c2ccccc2C(F)(F)F)CN(c2ccccc2C(F)(F)F)C1 ; strain or isolate: H37Rv ; method: colony count / visual reading ; measure: MIC ; value: 100 µg/mL
Cc1n[nH]c(=S)n1/N=C/c1ccc(F)cc1Cl ; strain or isolate: H37Rv ; method: agar diffusion / visual reading ; measure: zone ; dose: 10000 µg/mL ; value: 12 mm
CCCCCCCC1=C(C)C(=O)c2[nH]c3ccccc3c2C1=O ; strain or isolate: H37Rv ; measure: MIC ; value: 117 µM

Again, the opening 6 rows:

| compound | strain or isolate | method | measure | dose | value |
|---|---|---|---|---|---|
| NC(=S)c1cnc(C(=O)c2ccc(Cl)cc2)cn1 | H37Rv | resazurin | inhibition | 6.25 µg/mL | 90% |
| COc1ccc(Cc2cnc(N)nc2N)cc1OC | H37Rv | - | MIC | - | >123 µM |
| CCC(CO)NCC[C@H]1O[C@H](O[C@H]2O[C@H](CCNC(CC)CO)[C@@H](O)[C@H](O)[C@H]2O)[C@H](O)[C@@H](O)[C@@H]1O | H37Ra | - | MIC | - | >128 µg/mL |
| O=C1C(c2ccc(Oc3ccccc3)cc2)=[N+]([O-])c2cc3c(cc21)OCO3 | H37Rv | MTT | EC50 | - | 13.4 µM |
| Fc1ccc(N2CN(c3ccc(F)cc3Br)CN(c3ccc(F)cc3Br)C2)c(Br)c1 | H37Rv | colony count / visual reading | MIC | - | 50 µg/mL |
| c1ccc(-c2ccc(CNc3ccccc3-n3ccnc3)cc2)cc1 | 103471 | - | MIC | - | 8 µg/mL |

ECn is the concentration giving n% inhibition of infection, replication or growth. Inhibition is in % at the dose shown (toxicity tests: loss of growth or viability). A number after MIC or MFC names an inhibition level or a share of isolates. Zone: diameter of growth inhibition. Lines come from different laboratories, so protocols vary.